A mixed list of measured activities; the numbers were collected in NIAID ChemDB.

Shared fields: growth or infection tests; species: Herpes simplex virus 2; cells: HFF; endpoint: EC50

ECn is the concentration giving n% inhibition of infection, replication or growth. Rows are shuffled and stem from different studies. An empty or dashed field is not shown.

{"SMILES": "CC[C@]1(Br)C(=O)NC(=O)N([C@H]2C[C@H](O)[C@@H](CO)O2)[C@@H]1OC", "strain": "MS", "read by": "cytopathic effect", "value": "0.53 µM"}
{"SMILES": "CCCCCCCCCCCCOCCCOP(=O)(O)CO[C@H](CO)Cn1ccc(N)nc1=O", "strain": "SR", "read by": "plaque count", "value": "0.7 µM"}
{"SMILES": "COc1ccccc1CNC(=O)C1=Cc2ccncc2CC1", "strain": "E194", "read by": "plaque count", "value": "42.4 µM"}
{"SMILES": "COC(c1cn([C@H]2C[C@H](O)[C@@H](CO)O2)c(=O)[nH]c1=O)C(Cl)Cl", "strain": "MS", "read by": "cytopathic effect", "value": ">141 µM"}
{"SMILES": "Nc1nc(NCC2CC2)c2ncn(/C=C3/C[C@@H]3CO)c2n1", "read by": "cytopathic effect", "value": ">349 µM"}
{"SMILES": "COC(C)c1cn([C@H]2C[C@H](O)[C@@H](CO)O2)c(=O)[nH]c1=O", "strain": "MS", "read by": "cytopathic effect", "value": "1.5 µM"}
{"SMILES": "CN1C=CCC(C(=O)O[C@H]2C[C@H](n3cc(/C=C/I)c(=O)[nH]c3=O)O[C@@H]2CO)=C1", "read by": "cytopathic effect", "value": "0.08 µM"}
{"SMILES": "CCCCCCCCCCCCOCCCOP1(=O)CO[C@@H](Cn2ccc(N)nc2=O)CO1", "strain": "G", "read by": "plaque count", "value": ">1 µM"}
{"SMILES": "Nc1nc2c(ncn2COCCO)c(=O)[nH]1", "read by": "plaque count", "value": "3.5 µM"}
{"SMILES": "COc1ccc(Cc2nn(COC(CO)CO)c(=O)[nH]c2=O)cc1", "read by": "cytopathic effect", "value": ">100 µM"}
{"SMILES": "CC[C@]1(Cl)C(=O)NC(=O)N([C@H]2C[C@H](O)[C@@H](CO)O2)[C@@H]1OC", "strain": "MS", "read by": "cytopathic effect", "value": ">50 µM"}
{"SMILES": "O=c1[nH]c(=O)n(COC(CO)CO)nc1Cc1ccccc1", "read by": "cytopathic effect", "value": ">100 µM"}
{"SMILES": "O=C(NCCc1ccccc1)C1=Cc2ccncc2CC1", "strain": "E194", "read by": "plaque count", "value": "292 µM"}
{"SMILES": "Nc1ncnc2c1ncn2[C@@H]1C[C@H](NC=O)[C@@H](O)[C@H]1O", "value": ">100 µg/mL"}
{"SMILES": "COC(c1cn([C@H]2C[C@H](O)[C@@H](CO)O2)c(=O)[nH]c1=O)C(Br)Br", "strain": "MS", "read by": "cytopathic effect", "value": ">56.3 µM"}
{"SMILES": "OC[C@H]1O[C@@H](n2c(Br)nc3cc(Cl)c(Cl)cc32)[C@H](O)[C@@H]1O", "read by": "plaque count", "value": ">251 µM"}
{"SMILES": "Nc1ccn(C[C@@H](CO)OCP(=O)(O)O)c(=O)n1", "strain": "X-79", "read by": "plaque count", "value": "2.2 µg/mL"}
{"SMILES": "COC(=O)C[C@@H](SCCO)n1cnc2c(Cl)nc(N)nc21", "read by": "cytopathic effect", "value": ">200 µM"}
{"SMILES": "O=c1[nH]c(=O)n([C@H]2C[C@H](O)[C@@H](CO)O2)cc1C(O)C(Br)I", "strain": "MS", "read by": "cytopathic effect", "value": "3.3 µM"}
{"SMILES": "C=Cc1cn([C@H]2C[C@H](O)[C@@H](CO)O2)c(=O)[nH]c1=O", "read by": "cytopathic effect", "value": "0.3 µM"}
{"SMILES": "CCCCCCCCCCCCCCCCCOC[C@H](COP1(=O)CO[C@@H](Cn2ccc(N)nc2=O)CO1)OCc1ccccc1", "strain": "G", "read by": "plaque count", "value": ">1 µM"}
{"SMILES": "Nc1nc(Cl)c2ncn([C@@H](CCO)OCCO)c2n1", "read by": "cytopathic effect", "value": ">200 µM"}
{"SMILES": "O=c1[nH]c(=O)n([C@H]2C[C@H](O)[C@@H](CO)O2)cc1C(O)C(Cl)Cl", "strain": "MS", "read by": "cytopathic effect", "value": ">73.5 µM"}
{"SMILES": "CCCSc1nc(N)nc2c1ncn2/C=C1/C[C@@H]1CO", "read by": "cytopathic effect", "value": "66 µM"}
{"SMILES": "Cc1ccc(Cc2nn(COC(CO)CO)c(=O)[nH]c2=O)cc1", "read by": "cytopathic effect", "value": ">100 µM"}
{"SMILES": "CN1C=CCC(C(=O)O[C@H]2C[C@H](n3cc(I)c(=O)[nH]c3=O)O[C@@H]2CO)=C1", "read by": "cytopathic effect", "value": "1.2 µM"}
{"SMILES": "COc1ccc(Cc2nn(COCCO)c(=O)[nH]c2=O)cc1", "read by": "cytopathic effect", "value": ">100 µM"}
{"SMILES": "Cc1cn([C@@H]2O[C@H](CO)[C@H]2CO)c(=O)[nH]c1=O", "strain": "MS", "read by": "plaque count", "value": "5.7 µg/mL"}
{"SMILES": "CC(N=[N+]=[N-])c1cn([C@H]2C[C@H](O)[C@@H](CO)O2)c(=O)[nH]c1=O", "strain": "MS", "read by": "cytopathic effect", "value": ">100 µM"}
{"SMILES": "CCCCCOc1nc(N)nc2c1ncn2/C=C1/C[C@@H]1CO", "read by": "cytopathic effect", "value": ">330 µM"}
{"SMILES": "CCCCCCCCCCCCCCCCOP1(=O)CO[C@@H](Cn2ccc(N)nc2=O)CO1", "strain": "SR", "read by": "plaque count", "value": ">1 µM"}
{"SMILES": "Nc1nc(Cl)c2ncn([C@@H](CCO)SCCO)c2n1", "read by": "cytopathic effect", "value": ">200 µM"}
{"SMILES": "O=c1[nH]c(=O)n(COC(CO)CO)nc1Cc1ccc(O)cc1", "read by": "cytopathic effect", "value": ">100 µM"}
{"SMILES": "CCCOc1nc(N)nc2c1ncn2/C=C1/C[C@@H]1CO", "read by": "cytopathic effect", "value": "63 µM"}
{"SMILES": "Nc1nc2c(ncn2COCCO)c(=O)[nH]1", "strain": "T33301 acyclovir-susceptible", "read by": "cytopathic effect", "value": "0.5 µg/mL"}
{"SMILES": "O=c1[nH]c(=O)n([C@H]2C[C@H](O)[C@@H](CO)O2)cc1C(O)C(Cl)I", "strain": "MS", "read by": "cytopathic effect", "value": "15.8 µM"}
{"SMILES": "Cc1cn([C@@H]2C[C@H](CO)[C@@H](O)C2)c(=O)[nH]c1=O", "read by": "plaque count", "value": ">10 µg/mL"}
{"SMILES": "CCCCCCCCCCCCCCCCCCOC[C@H](COP(=O)(O)CO[C@H](CO)Cn1ccc(N)nc1=O)OCc1ccccc1", "strain": "MS", "read by": "plaque count", "value": "0.01 µM"}

A second listing of 3 rows from above:

SMILES | strain | read by | value
CN1C=CCC(C(=O)O[C@H]2C[C@H](n3cc(I)c(=O)[nH]c3=O)O[C@@H]2CO)=C1 | - | cytopathic effect | 1.2 µM
CCCCCCCCCCCCCCCCCCOC[C@H](COP(=O)(O)CO[C@H](CO)Cn1ccc(N)nc1=O)OCc1ccccc1 | MS | plaque count | 0.01 µM
CC(N=[N+]=[N-])c1cn([C@H]2C[C@H](O)[C@@H](CO)O2)c(=O)[nH]c1=O | MS | cytopathic effect | >100 µM